According to publication PMC11091072, “Targeting bacterial nickel transport with aspergillomarasmine A suppresses virulence-associated Ni-dependent enzymes” (Nature Communications, 2024):
Where two headings read alike, the source gives them in different places.

Tested on: NikA
Format: binding, Klebsiella pneumoniae
Settings: NikA 2 µM alone (Fig S12A)

With `[Cl-].[Cl-].[Zn+2]` [ZnCl2] the NikA melting temperature (ZnCl2 12.5 μM) was 59 ºC, the NikA melting temperature (ZnCl2 25 μM) was 60 ºC and the NikA melting temperature (ZnCl2 50 μM) was 62 ºC.
